{
  "source": "BindingDB's records for 34798775",
  "about": "(2021)",
  "biological_target": "Replicase polyprotein 1ab (Severe acute respiratory syndrome coronavirus, UniProt P0C6X7)",
  "assay": "ASSAY_NAME: Various Assay DESCRIPTION: This is a review article. Please point to the original journal.",
  "data": [
    {"smiles": "COc1ccccc1NCC(=O)N[C@@H](CC(C)C)C(=O)N[C@@H](C[C@@H]1CCNC1=O)C(=O)c1nc2ccccc2s1", "values": [
      {"measurement": "Ki", "value": 330, "unit": "nM"}
    ]},
    {"smiles": "Nc1ccccc1C(=O)On1nnc2ccccc21", "values": [
      {"measurement": "Ki", "value": 20, "unit": "nM"}
    ]},
    {"smiles": "COc1ccc(CC(=O)N[C@@H](CC(C)C)C(=O)N[C@@H](C[C@@H]2CCNC2=O)C(=O)c2nc3ccccc3s2)cc1", "values": [
      {"measurement": "Ki", "value": 420, "unit": "nM"}
    ]},
    {"smiles": "CC(C)C[C@H](NC(=O)COc1ccccc1)C(=O)N[C@@H](C[C@@H]1CCNC1=O)C(=O)c1nc2ccccc2s1", "values": [
      {"measurement": "Ki", "value": 560, "unit": "nM"}
    ]}
  ]
}
